Data: paper PMC4937376

What was measured:
[1] = molecular target: 6His-CpsR (Streptococcus pneumoniae D39) (UniProt A0A0H2ZMA3); assay: EMSA; conditions: dose dependent, shift above 1.0 ug CpsR, competed by 400-fold unlabeled cpsp, poly(dI-dC); EMSA: 20 ul, LightShift kit buffer (composition not given) with 50 ng/ul poly(dI-dC), 20 min room temperature, 6% gel; recombinant protein; residues 1-247; protein details: 6His; label: 5'-biotin
[2] = molecular target: CcpA (Streptococcus pneumoniae D39) (UniProt A0A0H2ZQ65); assay: pull-down (DNA affinity, MS); conditions: crude D39 extract, candidate, direct binding not confirmed; protein in an extract; label: 5'-biotin
[3] = molecular target: CpsR (native) (Streptococcus pneumoniae D39) (UniProt A0A0H2ZMA3); assay: pull-down (DNA affinity, MS); conditions: crude D39 extract, eluted 0.3-0.5 M NaCl; protein in an extract; residues 1-247; label: 5'-biotin
[4] = molecular target: DNA binding protein HU (Streptococcus pneumoniae D39) (UniProt A0A0H2ZMW4); assay: pull-down (DNA affinity, MS); conditions: crude D39 extract, candidate, direct binding not confirmed; protein in an extract; label: 5'-biotin
[5] = molecular target: DNA gyrase subunit A (Streptococcus pneumoniae D39) (UniProt Q8DPM2); assay: pull-down (DNA affinity, MS); conditions: crude D39 extract, candidate, direct binding not confirmed; protein in an extract; label: 5'-biotin
[6] = molecular target: SPD_0379 (MarR family regulator) (Streptococcus pneumoniae D39) (UniProt A0A0H2ZNZ9); assay: pull-down (DNA affinity, MS); conditions: crude D39 extract, candidate, direct binding not confirmed; protein in an extract; label: 5'-biotin

Measured: binding result

TACACATCTGCTTCTAAAATATTGTTAGAAAACGATTTGACTGTCCTGATCAATTTGTCATGTTCTTATTTCATTTTACTATATTTTTGGTTCGCGGGAAGTCTACTAAGATACTTAAAGATGCAGATAGTGAAAAAAGGTGTAGACATTACCGTAAAAAAGTGATATAATCGTAAGATGTTCAATGTATAGGTGTTAATCATGAGTAGACGTTTTAA (double strand) [cpsp 218-bp probe]
binds: all assays above

For part of these data: For at least one entry, the source does not settle the construct or the ends of the probe. For part of these data: Where cells or extracts were used, other partners may take part.
